Test [1] deals with recombinant soluble tetrameric N1 and N9 proteins (neuraminidase).
In test [2] the test system is Neth09H1N1 virus infection of MDCK cells. As to the kind of experiment: 4-day CPE reduction assay on MDCK cells. In kind it is cell-based, Influenza virus A/Netherlands/602/2009 (Neth09H1N1).
Test [3] has as its target NA of the whole Neth09H1N1 virus (Influenza A virus, UniProt C3PSV3).

Structures were worked out from names or drawings and are uncertain.

Consider one compound from PMC9150099, “Preventing Influenza A Virus Infection by Mixed Inhibition of Neuraminidase and Hemagglutinin by Divalent Inhibitors” (Journal of Medicinal Chemistry, 2022).

By IC50 is commonly meant the concentration at which inhibition is half-maximal. In the case of `CCC(CCCCc1cn(C2OC(CO)C(n3cc(CCCCC(CC)OC4OC(C(=O)O)=CC(O)C4NC(C)=O)nn3)C(O)C2O)nn1)OC1OC(C(=O)O)=CC(O)C1NC(C)=O` (stereo not shown), the IC50 is 5.2 µM in test [1] and 1.5 µM in test [3]. Further, the “CPE reduction assay on MDCK cells, lowest concentration that inhibits CPE formation” value in test [2] is >5 µM. The “CPE assay” value in test [2] (supplementary CSV) is >5 mM.
